# Screening data, single-dose tests

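Phenotypic screen: M. tuberculosis growth, glucose 7H9 medium, 3 days; the read-out is not stated. Tested at 500 µM. The record gives no direction; compounds that gave an IC50 in retests scored well above the rest, so higher reads as more growth inhibition. Of about 18,000 compounds tested this way, about 1,400 (7.9%) reached 50% or more in at least one test.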

Each number is a percent effect as filed. The controls that fix the scale are not given in the record; negative values are as filed. Many other results are left out here, so strong results are more common than in the screen.

- NC(=O)CN1CCC(OCCCc2ccccc2)C1 (stereo not drawn) | 73.81%
- OCC1CCN(C2CCCCC2)C1 (stereo not drawn) | 33.93%
- CC(C)Cc1cc(C(=O)NCC(O)C(F)(F)F)[nH]n1 (stereo not drawn) | 61.14%
- N#Cc1cccc2c1NC(=O)C2 | -10.1%
- Cn1ncc(Cl)c1C(=O)N1CCc2ccccc2C1 | 5.023%
- Cc1cc(C)nc(N2CCC2)n1 | 4.606%
- FC(F)Oc1cccc(C2CNCCO2)c1 (stereo not drawn) | 50.16%
- CCCC(=O)Nc1nnc(-c2ccccn2)s1 | 0.1933%
- Nc1nccnc1C(=O)NC1COc2ccccc2C1 (stereo not drawn) | 1.921%
- c1ccc2c(N3CCNCC3)cncc2c1 | 15.22%
- CCn1ccnc1C1CCN(C(=O)CNC)CC1 | -7.125%
- NCC(O)c1ccc(Cl)c(F)c1 (stereo not drawn) | 53.33%
- Cc1csc(CNC(=O)c2cc[nH]n2)n1 | 1.911%
- CC(Sc1nccn1C1CC1)C(=O)NC(N)=O (stereo not drawn) | 23.15%
- COc1ccc(S(=O)(=O)Nc2cc(C)ccn2)cc1 | -3.636%
- CN1CCN(c2cccnc2)CC1 | -1.978%
- CN(CCCNc1ncc(C(N)=O)cc1Cl)S(C)(=O)=O | 32.07%
- Cc1ncn(Cc2cc(=O)n3ccsc3n2)c(=O)c1C | 1.324%
- Cc1[nH]cnc1CN1CCC(Oc2ncccn2)CC1 | 21.83%
- COc1ccc(NC(=O)N2CCN3CCC2CC3)cn1 | -161.4%
- CCOc1nn(C)cc1N | 23.3%
- CC(C)n1ncc(C(=O)N=c2cc[nH]n2C(C)C)c1N | 6.015%
- Cc1csc(CCNC(=O)CNC(=O)C(C)(C)C)n1 | -3.158%
- CNc1nc(C(=O)NC2COc3ccccc3C2)cs1 (stereo not drawn) | 77.83%
- CC(c1ccncc1)N(C)C(=O)CNC(=O)N(C)C (stereo not drawn) | 14.24%
- Cc1ccc(C(=O)N2CCN(C)CC2C)c(C)c1 (stereo not drawn) | 25.77%
- CC(Sc1nc[nH]n1)C(=O)NCc1ccccc1 (stereo not drawn) | 8.28%
- Cc1cccc(NC(=O)N(C)CCS(C)(=O)=O)c1Cl | 9.695%
- O=C(Cc1ccc(F)cc1)N1CCNCC1 | 2.166%
- O=S(=O)(CCCF)NCc1ccncc1 | 5%
- CC1=C(C(=O)NCc2cccnc2)C(C)NC(=O)N1 (stereo not drawn) | -9.849%
- Cc1onc(N)c1S(=O)(=O)NCc1ccccn1 | 4.206%
- NCc1cccc(-c2ccccn2)n1 | 101.7%
- CN1N=C(C(=O)NC2CCc3nccn3C2)CCC1=O (stereo not drawn) | 2.556%
- Nc1nc(SCCO)n[nH]1 | 7.469%
- COC(CN)CC(C)C (stereo not drawn) | 8.302%
- CC(=O)N(CC1CCCN1)C1CC1 (stereo not drawn) | 14.07%
- CCNC(=O)CCS(=O)(=O)c1cccc(Cl)c1 | 3.43%
- CCC1c2cccn2CCN1C(=O)c1snnc1C (stereo not drawn) | 22.8%
- CCn1ncnc1CN1C[C@H](O)[C@@H](N2CCCCC2)C1 | 0.8114%
- CN1CCCN(C(=O)COc2ccc(F)cc2Cl)CC1 | 7.508%
- CNC(=O)Nc1ccc(OC)c(OCCOC)c1 | 57%
- NC1CCCCNC1=O (stereo not drawn) | -6.495%
- CC(CN)N(C)C(=O)Cc1ccc(F)c(F)c1 (stereo not drawn) | -6.146%
- CCN(CC)C(=O)Nc1cc2c(cc1C)OCO2 | 17.05%
- CNCc1cc(C#N)ccc1F | 46.32%
- CC(C(N)=O)N1CCN(Cc2ccc(Cl)c(F)c2)CC1 (stereo not drawn) | 30.91%
- COc1ccc(NC(=O)CSc2ncnc(N)n2)cc1 | 6.5%
- CCOC(=O)NCCC(=O)Nc1cccnc1 | 4.586%
- CC1(NC(=O)C2CCC2)CCS(=O)(=O)C1 (stereo not drawn) | 0.2751%
- Cc1ccccc1C(=O)N[C@H](CO)C(C)C | 9.113%
- CSCc1noc(CN2CCN(C)C(CCO)C2)n1 (stereo not drawn) | 1.869%
- CNCc1nc(-c2ccc(F)cc2)no1 | 29.98%
- C[C@H](N)c1ccco1 | 11.44%
- Cn1ccnc1C(O)c1ccc(F)cc1 (stereo not drawn) | -13.42%
- OCCNCCNCc1cccc(Cl)c1Cl | 57.71%

Some entries from above, unchanged:

{"structure": "CC(C)Cc1cc(C(=O)NCC(O)C(F)(F)F)[nH]n1", "stereo": "stereo not drawn", "Percent Effect": 61.14}
{"structure": "Cc1ccccc1C(=O)N[C@H](CO)C(C)C", "Percent Effect": 9.113}
{"structure": "Cc1cccc(NC(=O)N(C)CCS(C)(=O)=O)c1Cl", "Percent Effect": 9.695}
{"structure": "CC(=O)N(CC1CCCN1)C1CC1", "stereo": "stereo not drawn", "Percent Effect": 14.07}
{"structure": "OCCNCCNCc1cccc(Cl)c1Cl", "Percent Effect": 57.71}

The values are deposited in ChEMBL (CHEMBL3988442, “University of Dundee, Small-Polar-MMV Screening Library” (2021)).